Compound potency records, mixed from different reports. Data source: NIAID ChemDB in PubChem.

Shared fields: whole-cell or culture tests; species: Aspergillus fumigatus; endpoint: zone

Blank or dashed fields: not listed here.

compound	strain	method	dose	result
Clc1ccc2c(c1)Sc1cccnc1N2CCCCCCN1c2ccc(Cl)cc2Sc2cccnc21	MTCC 343		100 µg/mL	12 mm
Cc1ccc2c(c1)C1(SCC(=O)N1c1c(C)n(C)n(-c3ccccc3)c1=O)C(=O)N2CCCCCCN1C(=O)C2(c3cc(F)ccc31)c1c(C)nn(-c3ccccc3)c1Oc1c2c(C)nn1-c1ccccc1	MTCC 343	agar diffusion	100 µg/mL	13 mm
Cc1ccc(O)c(O)c1O			100 µg/mL	10 mm
COc1ccc(Cc2ccc(OC)c(-c3nnc4sc(-c5ccccc5Cl)nn34)c2)cc1-c1nnc2sc(-c3ccccc3Cl)nn12	HIC 6094		100 µg/disc	10 mm
OC(COc1ccccc1/C=N\n1c(-c2cccnc2)n[nH]c1=S)COc1ccccc1/C=N\n1c(-c2cccnc2)n[nH]c1=S	RCMB 002008	agar diffusion / agar	5 mg/mL	1–5 mm
Nc1nc(COC(=O)c2cccc([N+](=O)[O-])c2Cl)cs1	NCIM No. 902		25 µg/mL	<10 mm
COc1ccc(Cc2ccc(OC)c(-c3nnc4sc(-c5ccccc5)nn34)c2)cc1-c1nnc2sc(-c3ccccc3)nn12	HIC 6094		100 µg/disc	12 mm
CC1=Cc2c(CO)c(O)c(C)c(O)c2CO1	IFM 41362	agar diffusion	100 µM	12 mm
Cc1ccc(NC(=O)c2ccccc2N)cc1	RCMB 02003	agar diffusion	25 µg/mL	12.2 mm
COC(=O)N[C@H](C(=O)NN(CC[C@@]1(Cc2ccccc2)C(=O)N(C2c3ccccc3C[C@H]2O[Si](C)(C)C(C)(C)C)C[C@@H]1O[Si](C)(C)C(C)(C)C)Cc1ccc(Br)cc1)C(C)(C)C	RCMB 002003	agar diffusion / agar	10 mg/mL	18.8 mm
Cc1nn(-c2ccccc2)c2c1C1(C(=O)N(CCCCCCN3C(=O)C4(SCC(=O)N4c4c(C)n(C)n(-c5ccccc5)c4=O)c4ccccc43)c3ccc(F)cc31)c1c(C)nn(-c3ccccc3)c1O2	MTCC 343	agar diffusion	100 µg/mL	14 mm
CCOC(=O)c1ccc(-c2nn(-c3ccccc3)cc2-c2ccc([N+](=O)[O-])cc2)nc1C		agar diffusion / agar	1.25 mg/mL	0 mm
CCC(C)CCCCCCCCCCC(=O)N[C@H]1C[C@@H](O)[C@@H](SCC(=O)OC)NC(=O)C2[C@@H](O)[C@@H](C)CN2C(=O)C(CO)NC(=O)C([C@H](O)C(SCC(=O)OC)c2ccc(O)cc2)NC(=O)NC(=O)[C@@H]2C[C@@H](O)CN2C(=O)[C@H]([C@@H](C)O)NC1=O	AF-1	agar	2 mg/mL	20 mm
N#CCCc1cccc(C(=O)OCc2csc(N)n2)c1	NCIM No. 902		25 µg/mL	<10 mm
Clc1ccc2c(c1)Sc1cccnc1N2CCCCN1c2ccc(Cl)cc2Sc2cccnc21	MTCC 343		100 µg/mL	11 mm
C[C@@H]1[C@H](O)[C@@H](C)/C=C/C=C/C=C/C=C/C=C/C=C/C=C/[C@H](O[C@@H]2O[C@H](C)[C@@H](O)[C@H](N)[C@@H]2O)C[C@@H]2O[C@](O)(C[C@@H](O)C[C@@H](O)[C@H](O)CC[C@@H](O)C[C@@H](O)CC(=O)O[C@H]1C)C[C@H](O)[C@H]2C(=O)O		agar diffusion / agar	30 µg/disc	23 mm
COc1ccc(Cc2ccc(OC)c(-c3nnc4sc(Cc5ccccc5)nn34)c2)cc1-c1nnc2sc(Cc3ccccc3)nn12	HIC 6094		100 µg/disc	22 mm
Cc1ccc2c(c1)C1(SCC(=O)N1c1c(C)n(C)n(-c3ccccc3)c1=O)C(=O)N2CCCCCCBr	MTCC 343	agar diffusion	100 µg/mL	0 mm
Brc1ccc2c(c1)Sc1cccnc1N2C/C=C/CN1c2ccc(Br)cc2Sc2cccnc21	MTCC 343		100 µg/mL	12 mm
Cc1ccc2c(c1)C1(C(=O)N2CCCCCCN2C(=O)C3(SCC(=O)N3c3c(C)n(C)n(-c4ccccc4)c3=O)c3ccccc32)c2c(C)nn(-c3ccccc3)c2Oc2c1c(C)nn2-c1ccccc1	MTCC 343	agar diffusion	100 µg/mL	0 mm
Nc1ccccc1C(=O)Nc1ccc(CC(=O)O)cc1	RCMB 02003	agar diffusion	25 µg/mL	11.2 mm
COC(=O)N[C@H](C(=O)NN(CC[C@@]1(Cc2ccccc2)C(=O)N(C2c3ccccc3C[C@H]2O)C[C@@H]1O)Cc1ccc(-c2cccnc2)cc1)C(C)(C)C	RCMB 002003	agar diffusion / agar	10 mg/mL	18.8 mm
N#Cc1ccc(Nc2nc(Oc3ccnc4ccccc34)nc(N3CCN(c4ccccc4)CC3)n2)cc1C(F)(F)F	MTCC 343	agar	100 µg/mL	<10 mm
c1ccc2c(c1)Sc1cccnc1N2CCCCCCN1c2ccccc2Sc2cccnc21	MTCC 343		100 µg/mL	10 mm
Nc1nc(COC(=O)C2(c3ccc(Cl)cc3)CC2)cs1	NCIM No. 902		25 µg/mL	<10 mm
Cc1ccc(-n2cc(-c3ccc([N+](=O)[O-])cc3)c(-c3ccnc4nncn34)n2)cc1		agar diffusion / agar	2.5 mg/mL	11 mm
N#Cc1ccc(Nc2nc(Oc3ccnc4ccccc34)nc(N3CCOCC3)n2)cc1C(F)(F)F	MTCC 343	agar	100 µg/mL	<10 mm
CC(=O)Nc1ccc(Cl)cc1Sc1ncccc1[N+](=O)[O-]	MTCC 343		100 µg/mL	12 mm
C[C@H]1[C@H](O)[C@@H](C)/C=C/C=C/C=C/C=C/C=C/C=C/C=C/[C@H](O[C@@H]2O[C@H](C)[C@@H](O)[C@H](N)[C@@H]2O)C[C@@H]2O[C@](O)(C[C@@H](O)C[C@@H](O)CC[C@H](O)[C@@H](O)C[C@@H](O)CC(=O)O[C@H]1C)C[C@H](O)[C@H]2C(=O)O		agar diffusion	5 mg/disc	0 mm
N#Cc1ccc(Nc2nc(Oc3ccnc4ccccc34)nc(N3CCC(Cc4ccccc4)CC3)n2)cc1C(F)(F)F	MTCC 343	agar	100 µg/mL	<10 mm
Cc1ccc(-n2cc(-c3ccc([N+](=O)[O-])cc3)c(-c3ccn[nH]3)n2)cc1		agar diffusion / agar	1.25 mg/mL	3 mm
Clc1ccc(COC(Cn2ccnc2)c2ccc(Cl)cc2Cl)c(Cl)c1	MTCC 343		100 µg/mL	15 mm
COC(=O)N[C@H](C(=O)NN(CC[C@]1(Cc2ccccc2)C(=O)N(C2c3ccccc3C[C@H]2O)C[C@@H]1O)Cc1ccc(Br)cc1)C(C)(C)C	RCMB 002003	agar diffusion / agar	10 mg/mL	18.8 mm
CN(C)/C=C/C(=O)c1nn(-c2ccccc2)cc1-c1ccc([N+](=O)[O-])cc1		agar diffusion / agar	2.5 mg/mL	5 mm
COc1ccc(Cc2ccc(OC)c(-c3nnc4sc(-c5cccc([N+](=O)[O-])c5)nn34)c2)cc1-c1nnc2sc(-c3cccc([N+](=O)[O-])c3)nn12	HIC 6094		100 µg/disc	16 mm
Nc1nc(COC(=O)c2ccc(Br)cc2)cs1	NCIM No. 902		25 µg/mL	<10 mm

The last 4 rows once more:

compound | strain | method | dose | result
COC(=O)N[C@H](C(=O)NN(CC[C@]1(Cc2ccccc2)C(=O)N(C2c3ccccc3C[C@H]2O)C[C@@H]1O)Cc1ccc(Br)cc1)C(C)(C)C | RCMB 002003 | agar diffusion / agar | 10 mg/mL | 18.8 mm
CN(C)/C=C/C(=O)c1nn(-c2ccccc2)cc1-c1ccc([N+](=O)[O-])cc1 |  | agar diffusion / agar | 2.5 mg/mL | 5 mm
COc1ccc(Cc2ccc(OC)c(-c3nnc4sc(-c5cccc([N+](=O)[O-])c5)nn34)c2)cc1-c1nnc2sc(-c3cccc([N+](=O)[O-])c3)nn12 | HIC 6094 |  | 100 µg/disc | 16 mm
Nc1nc(COC(=O)c2ccc(Br)cc2)cs1 | NCIM No. 902 |  | 25 µg/mL | <10 mm

a–b is a range or a potency band. Lines come from different laboratories, so protocols vary. Zones are inhibition diameters on agar.